Anti-infective test results gathered from many reports (values: NIAID ChemDB through PubChem).

Common to all: tests in culture; species: Cowpox virus; measure: EC50

ECn is the concentration giving n% inhibition of infection, replication or growth. Conditions beyond the fields shown may differ between rows. Blank or dashed fields: not listed here.

| SMILES | strain or isolate | cell line | value |
|---|---|---|---|
| CC(=O)N1C(=O)C(=Nc2ccc(S(=O)(=O)Nc3nc(C)cc(C)n3)cc2)c2cc(Cl)ccc21 | - | HFF | >300 µM |
| N=c1c2ncn([C@@H]3O[C@H](CO)[C@@H](O)[C@H]3O)c2ncn1OCc1cc(F)cc(F)c1 | - | LLC-MK2 | >100 µg/mL |
| Nc1nc(=O)n([C@@H]2C=C(CO)[C@@H](O)[C@H]2O)cc1Br | Brighton | - | 100 µg/mL |
| Nc1ccn(C[C@@H](CO)OCP(=O)(O)O)c(=O)n1 | - | VERO | 7.5 µg/mL |
| CC(=O)N1C(=O)C(=Nc2ccc(S(=O)(=O)Nc3nc(C)cc(C)n3)cc2)c2ccccc21 | - | HFF | 33 µM |
| Nc1nc(=O)n([C@@H]2O[C@H](CO)[C@@H](O)[C@@H]2O)cc1F | Brighton | VERO | 0.22 µM |
| CCCCCCCCCCCCCCCCCCOCCOP(=O)(O)COCCn1cnc2c(=O)[nH]c(N)nc21 | Brighton | HFF | 0.029 µM |
| Nc1ccn([C@@H]2C=C(CO)[C@@H](O)[C@H]2O)c(=O)n1 | CPX | MK2 | 0.06 µg/mL |
| Nc1nc(=O)n([C@@H]2O[C@H](CO)[C@@H](O)[C@@H]2F)cc1I | Brighton | C1271 | 0.8 µM |
| Nc1ccn(C[C@H]2COP(=O)(O)CO2)c(=O)n1 | - | LLC-MK2 | >100 µg/mL |
| Nc1nc2c(ncn2[C@@H]2O[C@H](CO)[C@@H](O)[C@@H]2O)c(=O)[nH]1 | Brighton | VERO | 197 µM |
| Nc1nccc2c1ncn2[C@@H]1C=C(CO)[C@@H](O)[C@H]1O | - | VERO | >100 µg/mL |
| CN[C@H]1C[C@@H](n2cnc3c(N)ncnc32)[C@H](O)[C@@H]1O | - | HFF | >100 µg/mL |
| Nc1ccn(C[C@@H](CO)OCP(=O)(O)O)c(=O)n1 | Brighton | VERO | 53 µM |
| Nc1ccn([C@@H]2C=C(CO)[C@@H](O)[C@H]2O)c(=O)n1 | Brighton | - | 0.06 µg/mL |
| Nc1nc(=O)n([C@@H]2O[C@H](CO)[C@@H](O)[C@@H]2O)cc1Cl | Brighton | VERO | 100 µM |
| Cc1cc(C)nc(NS(=O)(=O)c2ccc(N=C3C(=O)Nc4ccc(Br)cc43)cc2)n1 | - | HFF | 112 µM |
| O=c1[nH]c(=O)n([C@H]2C[C@H](O)[C@@H](CO)O2)cc1I | Brighton | C1271 | 0.8 µM |
| Nc1ncc2c(ncn2COC(CO)CO)n1 | Brighton | VERO | 35 µM |

A second listing of 3 rows from above:

SMILES,strain or isolate,cell line,value
CC(=O)N1C(=O)C(=Nc2ccc(S(=O)(=O)Nc3nc(C)cc(C)n3)cc2)c2ccccc21,-,HFF,33 µM
Nc1nc(=O)n([C@@H]2C=C(CO)[C@@H](O)[C@H]2O)cc1Br,Brighton,-,100 µg/mL
CN[C@H]1C[C@@H](n2cnc3c(N)ncnc32)[C@H](O)[C@@H]1O,-,HFF,>100 µg/mL